Anti-infective test results gathered from many reports (values: NIAID ChemDB through PubChem).

All rows: tests in culture; species: HIV-1; method: p24; read-out: inhibition

Neighbouring rows are from separate reports. Inhibition is in % at the dose shown (toxicity tests: loss of growth or viability). Blank or dashed fields: not listed here.

structure | tested at | cells | strain | mutations | conditions | value
CO[C@H]1C[C@@H]2CC[C@@H](C)[C@@](O)(O2)C(=O)C(=O)N2CCCC[C@H]2C(=O)O[C@H]([C@H](C)C[C@@H]2CC[C@@H](O)[C@H](OC)C2)CC(=O)[C@H](C)/C=C(\C)[C@@H](O)[C@@H](OC)C(=O)[C@H](C)C[C@H](C)/C=C/C=C/C=C/1C | 0.00001 µM | Macrophage + Monocytes/macrophages | SF162 R5 | - | - | 45%
Cc1ccc(-c2ccc3c(c2)C=C(C(=O)Nc2ccc(C[N+](C)(C)C4CCOCC4)cc2)CCC3)cc1 | 1 µM | PBMC | TB8 CLADE C | - | - | 100%
O=C(CCCCC(=O)Nc1sc2c(c1C(=O)O)CCCC2)Nc1sc2c(c1C(=O)O)CCCC2 | 10 µM | MT-2 | IIIB | - | - | 26.7%
CC(=O)O[C@H]1C[C@@]2(C)[C@@H](C[C@@H](O)C3[C@]2(C)CC[C@H]2[C@H](C)[C@H](O)CC[C@]32C)/C1=C(/CCC=C(C)C)C(=O)O | 25 µg/mL | Macrophage + Monocytes/macrophages | IIIB | - | - | 99%
CCc1c(Sc2ccccc2)n(COCc2ccccc2)c(=O)[nH]c1=O | 0.015 µM | MT-4 | A012D | - | - | 90%
COc1ccc2[nH]c(C(=O)N3CCN(c4ncccc4NC(C)C)CC3)cc2c1 | 0.1 µM | H9 | IIIB | - | - | 64%
O=C(NCc1ccc(F)cc1)c1ncc2cccnc2c1O | 1.25 µM | MT-4 | - | - | 10% FBS | >95%
C[S+](CC[C@H](N)C(=O)[O-])C[C@H]1O[C@@H](n2cnc3c(N)ncnc32)[C@H](O)[C@@H]1O | 33 µg/mL | PBMC | IIIB | - | - | 33%
Nc1nc(NC2CC2)c2ncn([C@H]3C=C[C@@H](CO)C3)c2n1 | 0.25 µM | PBMC | KAB Clinical isolate | - | - | 37%
O=C(NCc1cccnc1)C(=O)N/N=C\c1ccc(-c2cccc(Cl)c2)o1 | 10 µM | MT-2 | IIIB | - | - | 77.5%
CCN(CC)C(=S)S | 0.00000075 µg/mL | PBL | LAV | - | - | 33%
CCCCCCCCNCC(O)CCCCCCCCCn1c(=O)c2c(ncn2C)n(C)c1=O | 25 µM | U1(HIV-1 (LAV)) + U1 | LAV | - | - | 90%
CC(=O)N1CCC(C(=O)N(CCCN2CCC(Cc3ccc(C(N)=O)cc3)CC2)c2ccc(C)c(Cl)c2)CC1 | 0.012 µM | PBMC | KK Clinical isolates | - | - | 90%
CC(=O)CCC(=O)NCCCOCCOCCCNC(=O)CNC(=O)[C@H](CS)NC(=O)[C@@H](NC(=O)[C@@H](NC(=O)[C@H](CO)NC(=O)[C@@H](N)CS)C(C)C)[C@@H](C)O | 1.32 µM | PBMC(PHA STIM.) + PBMC | IIIB | - | - | 70%
Cc1cc(NC(=O)C(=O)NCCN2CCN(C(=O)c3ccccc3F)CC2)ccc1Br | 10 µM | MT-2 | IIIB | - | - | 44.9%
CC(C)[C@H](NC(=O)[C@H](CO)NC(=O)[C@@H](N)CS)C(=O)N[C@H](C(=O)N[C@@H](CS)C(=O)NCC(=O)O)[C@@H](C)O | 1.32 µM | PBMC(PHA STIM.) + PBMC | BaL | - | - | 30%
O=C(O)C(O)c1ccccc1 | 100 µg/mL | U87 (CD4+ CXCR4+) + U87 | IIIB | - | - | 97%
CCN(CC)CCCC(C)Nc1ccnc2cc(Cl)ccc12 | 100 µM | H9 | - | - | - | 76.45%
O=P(O)(O)OP(=O)(O)OP(=O)(O)OP(=O)(O)OP(=O)(O)OP(=O)(O)OP(=O)(O)OP(=O)(O)OP(=O)(O)OP(=O)(O)OP(=O)(O)OP(=O)(O)OP(=O)(O)OP(=O)(O)OP(=O)(O)O | 100 µg/mL | H9 | IIIB | - | - | 30%
NCCSSCCN | 200 µM | Macrophage | BaL | - | - | 100%
CO[C@H]1C[C@@H]2CC[C@@H](C)[C@@](O)(O2)C(=O)C(=O)N2CCCC[C@H]2C(=O)O[C@H]([C@H](C)C[C@@H]2CC[C@@H](O)[C@H](OC)C2)CC(=O)[C@H](C)/C=C(\C)[C@@H](O)[C@@H](OC)C(=O)[C@H](C)C[C@H](C)/C=C/C=C/C=C/1C | 0.0005 µM | PBMC | CC101.19 R5 AD101-resistant | - | - | 95%
CCCCCCCCCCCCC/C=C/[C@@H](O)C(CO)NC(=O)CCCCC(=O)Nc1ccc2[nH]c(C(=O)N3CCN(c4ncccc4NC(C)C)CC3)cc2c1 | 0.1 µM | H9 | IIIB | - | - | 59%
NCC(=O)N1CCC[C@H]1C(=O)NCC(N)=O | 20 µM | MT-2 | LAV | - | - | 61%
CCCCCCCCCCCCC/C=C/[C@@H](O)C(CO)NC(=O)CCC(=O)Nc1ccc2[nH]c(C(=O)N3CCN(c4ncccc4NC(C)C)CC3)cc2c1 | 0.1 µM | H9 | IIIB | - | - | 59%
Cc1ccc(C)c(NS(=O)(=O)c2cc(C(=O)NCc3ccccn3)ccc2Cl)c1 | 2.5 µM | PBMC | Clinical isolate | Nevirapine resistant | - | 90%
O=C(CSc1nc2ccc(NC(=O)c3ccccc3C(=O)O)cc2s1)NCc1ccccc1 | 10 µM | MT-2 | IIIB | - | - | 29%
CCCCCCCCCCCCCCCC(=O)NC1C(COP(=O)(O)OC2C(O)C(COP(=O)(O)OC3CC(CO)OC3n3cnc4c(N)ncnc43)OC2n2cnc3c(N)ncnc32)OC(n2cnc3c(N)ncnc32)C1O | 300 µM | - | - | - | - | 0%

The last 2 rows once more:

O=C(CSc1nc2ccc(NC(=O)c3ccccc3C(=O)O)cc2s1)NCc1ccccc1 ; tested at: 10 µM ; cells: MT-2 ; strain: IIIB ; value: 29%
CCCCCCCCCCCCCCCC(=O)NC1C(COP(=O)(O)OC2C(O)C(COP(=O)(O)OC3CC(CO)OC3n3cnc4c(N)ncnc43)OC2n2cnc3c(N)ncnc32)OC(n2cnc3c(N)ncnc32)C1O ; tested at: 300 µM ; value: 0%